In patent US20230293409A1, “Compositions Comprising Antimicrobials and (Bio)-Alkanediols for Skin Protection” (Symrise AG, priority 2020, published 2023):

Tested on: Staphylococcus aureus
Assay: Minimum Inhibitory Concentration (MIC) test and Kull synergy index
Type: cell-based
Details: Table 3, Component B alone

Substance: Propanediol Caprylate
- MIC Component B in ppm: 500 ppm
